Results deposited as PubChem BioAssay AID1259414 (Drosophila RNAi Screening Center, 2018)
In all, the deposit lists about 24,000 reagents; this is an unselected part of those with a known target gene and a result. Of all reagents, about 1,210 (5%) are marked active. 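Inactive calls also include excluded dsRNAs with several or no targets, genes unexpressed in JW18, and well A1, regardless of score.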 Names joined by + are all predicted targets of the reagent.

Purpose: 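Host factors increasing or decreasing Wolbachia levels in cultured fly cells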 (primary screen)
System: Drosophila JW18 cells infected with Wolbachia
Reagents: long dsRNA against Drosophila genes, 0.25 µg dsRNA per well of a 384-well plate
Timing: 5 days
Treatment: cells persistently infected with Wolbachia before knock-down; no added drug
Read-out: 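Automated imaging of bacterial rRNA staining divided by host cell count, reported as plate-normalised robust z-score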
Direction: Wolbachia per cell robust z: higher = more Wolbachia per host cell than the plate typical
Hit rule: 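Hit when robust z is 1.5 or more, or -1.5 or less, in at least two of three replicates; excludes dsRNAs with several or no targets, genes not expressed in JW18 and well A1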

{"gene knocked down": "CG16852", "dsRNA": "DRSC01876", "Wolbachia per cell robust z, rep 1": -0.478, "Wolbachia per cell robust z, rep 2": -1, "Wolbachia per cell robust z, rep 3": -0.666, "activity call": "inactive"}
{"gene knocked down": "CG12499", "dsRNA": "DRSC14521", "Wolbachia per cell robust z, rep 1": 0.036, "Wolbachia per cell robust z, rep 2": -0.003, "Wolbachia per cell robust z, rep 3": 0.00407, "activity call": "inactive"}
{"gene knocked down": "CG32137", "dsRNA": "DRSC10271", "Wolbachia per cell robust z, rep 1": 0.113, "Wolbachia per cell robust z, rep 2": 0.721, "Wolbachia per cell robust z, rep 3": -1.21, "activity call": "inactive"}
{"gene knocked down": "CG4218", "dsRNA": "DRSC01939", "Wolbachia per cell robust z, rep 1": -0.944, "Wolbachia per cell robust z, rep 2": -0.212, "Wolbachia per cell robust z, rep 3": 0.204, "activity call": "inactive"}
{"gene knocked down": "CG4218", "dsRNA": "DRSC27814", "Wolbachia per cell robust z, rep 1": 0.546, "Wolbachia per cell robust z, rep 2": 1.15, "Wolbachia per cell robust z, rep 3": 1.54, "activity call": "inactive"}
{"gene knocked down": "CG7099", "dsRNA": "DRSC03006", "Wolbachia per cell robust z, rep 1": 0.117, "Wolbachia per cell robust z, rep 2": 0.927, "Wolbachia per cell robust z, rep 3": -0.433, "activity call": "inactive"}
{"gene knocked down": "CG7099", "dsRNA": "DRSC27321", "Wolbachia per cell robust z, rep 1": -4.79, "Wolbachia per cell robust z, rep 2": 0.198, "Wolbachia per cell robust z, rep 3": 0.381, "activity call": "inactive"}
{"gene knocked down": "CG30120 + Lamtor2", "dsRNA": "DRSC05726", "Wolbachia per cell robust z, rep 1": 0.61, "Wolbachia per cell robust z, rep 2": 5.11, "Wolbachia per cell robust z, rep 3": 1.23, "activity call": "inactive"}
{"gene knocked down": "CG30120 + Lamtor2", "dsRNA": "DRSC06922", "Wolbachia per cell robust z, rep 1": -3.28, "Wolbachia per cell robust z, rep 2": -0.267, "Wolbachia per cell robust z, rep 3": -1.18, "activity call": "inactive"}
{"gene knocked down": "CG32024", "dsRNA": "DRSC21883", "Wolbachia per cell robust z, rep 1": -0.816, "Wolbachia per cell robust z, rep 2": -2.4, "Wolbachia per cell robust z, rep 3": -0.835, "activity call": "inactive"}
{"gene knocked down": "CG6357", "dsRNA": "DRSC06979", "Wolbachia per cell robust z, rep 1": -1.13, "Wolbachia per cell robust z, rep 2": -6.87, "Wolbachia per cell robust z, rep 3": 0.0559, "activity call": "inactive"}
{"gene knocked down": "qkr58E-1", "dsRNA": "DRSC04709", "Wolbachia per cell robust z, rep 1": -0.321, "Wolbachia per cell robust z, rep 2": 0.51, "Wolbachia per cell robust z, rep 3": -0.527, "activity call": "inactive"}
{"gene knocked down": "qkr58E-1", "dsRNA": "DRSC23841", "Wolbachia per cell robust z, rep 1": -0.831, "Wolbachia per cell robust z, rep 2": -0.309, "Wolbachia per cell robust z, rep 3": -0.996, "activity call": "inactive"}
{"gene knocked down": "TbCMF46", "dsRNA": "DRSC02221", "Wolbachia per cell robust z, rep 1": 0.445, "Wolbachia per cell robust z, rep 2": -1.04, "Wolbachia per cell robust z, rep 3": 0.82, "activity call": "inactive"}
{"gene knocked down": "Rrp42", "dsRNA": "DRSC07161", "Wolbachia per cell robust z, rep 1": 0.905, "Wolbachia per cell robust z, rep 2": 0.6, "Wolbachia per cell robust z, rep 3": 0.796, "activity call": "inactive"}
{"gene knocked down": "bard", "dsRNA": "DRSC14796", "Wolbachia per cell robust z, rep 1": 0.57, "Wolbachia per cell robust z, rep 2": 1, "Wolbachia per cell robust z, rep 3": 1.27, "activity call": "inactive"}

The list goes on, starting with the last 3 of the part before.
{"gene knocked down": "TbCMF46", "dsRNA": "DRSC02221", "Wolbachia per cell robust z, rep 1": 0.445, "Wolbachia per cell robust z, rep 2": -1.04, "Wolbachia per cell robust z, rep 3": 0.82, "activity call": "inactive"}
{"gene knocked down": "Rrp42", "dsRNA": "DRSC07161", "Wolbachia per cell robust z, rep 1": 0.905, "Wolbachia per cell robust z, rep 2": 0.6, "Wolbachia per cell robust z, rep 3": 0.796, "activity call": "inactive"}
{"gene knocked down": "bard", "dsRNA": "DRSC14796", "Wolbachia per cell robust z, rep 1": 0.57, "Wolbachia per cell robust z, rep 2": 1, "Wolbachia per cell robust z, rep 3": 1.27, "activity call": "inactive"}
{"gene knocked down": "CG31612", "dsRNA": "DRSC03697", "Wolbachia per cell robust z, rep 1": -2.86, "Wolbachia per cell robust z, rep 2": -1.91, "Wolbachia per cell robust z, rep 3": -0.326, "activity call": "active"}
{"gene knocked down": "CG31612", "dsRNA": "DRSC03698", "Wolbachia per cell robust z, rep 1": 0.0103, "Wolbachia per cell robust z, rep 2": 1.2, "Wolbachia per cell robust z, rep 3": -3.91, "activity call": "inactive"}
{"gene knocked down": "CG15073", "dsRNA": "DRSC06506", "Wolbachia per cell robust z, rep 1": -3.67, "Wolbachia per cell robust z, rep 2": 0.742, "Wolbachia per cell robust z, rep 3": -1.49, "activity call": "inactive"}
{"gene knocked down": "CG15073", "dsRNA": "DRSC27105", "Wolbachia per cell robust z, rep 1": -6.98, "Wolbachia per cell robust z, rep 2": -0.798, "Wolbachia per cell robust z, rep 3": -0.89, "activity call": "inactive"}
{"gene knocked down": "Prp38", "dsRNA": "DRSC07060", "Wolbachia per cell robust z, rep 1": 0.953, "Wolbachia per cell robust z, rep 2": 0.581, "Wolbachia per cell robust z, rep 3": 0.89, "activity call": "inactive"}
{"gene knocked down": "Prp38", "dsRNA": "DRSC28968", "Wolbachia per cell robust z, rep 1": 0.639, "Wolbachia per cell robust z, rep 2": 1.76, "Wolbachia per cell robust z, rep 3": 0.913, "activity call": "inactive"}
{"gene knocked down": "CG3306", "dsRNA": "DRSC10357", "Wolbachia per cell robust z, rep 1": -0.53, "Wolbachia per cell robust z, rep 2": 0.351, "Wolbachia per cell robust z, rep 3": -0.429, "activity call": "inactive"}
{"gene knocked down": "Prp31", "dsRNA": "DRSC10735", "Wolbachia per cell robust z, rep 1": 0.846, "Wolbachia per cell robust z, rep 2": -4.57, "Wolbachia per cell robust z, rep 3": -0.13, "activity call": "inactive"}
